Measured values from article PMC8136791, “In vivo targets of Salmonella FinO include a FinP-like small RNA controlling copy number of a cohabitating plasmid”.
For at least one entry, the source does not settle the construct or the ends of the probe. The comparison behind a weaker result is the experiment's own reference, which may not be listed here. Where a protein sequence is shown, tags need not be part of it.

Target: T1, FinO (UniProt A0A0H3P176)
T1 sequence (looked up, limits assumed): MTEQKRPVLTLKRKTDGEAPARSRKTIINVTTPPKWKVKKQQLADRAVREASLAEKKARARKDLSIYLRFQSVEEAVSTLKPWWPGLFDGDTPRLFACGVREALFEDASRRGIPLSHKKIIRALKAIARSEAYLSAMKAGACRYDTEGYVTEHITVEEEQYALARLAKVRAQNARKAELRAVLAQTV
Test: competition with a labelled probe
Conditions: 25 mM Tris-HCl pH 7.4, 150 mM NaCl, 1 mM MgCl2, 1 ug yeast RNA/reaction, 4 nM labeled RNA, 37 C, 1 h (EMSA) or 30 min (filter binding), recombinant protein, letters put together from the description

GGGCAUUGAUUGCCUCCUUUGCAGGCAGUUGGUGGUUAGGCGCUGGCGGGGUCACUACCCCCGCCCUGCGCCGCUCU [RepX]
binding result (unlabeled RepX displaces FinP*, less effectively, 500 nM FinO): binds more weakly
binding result (unlabeled RepX unable to compete with FinP*, 5 uM FinO): binds more weakly
